Tested on: trypomastigote of T. cruzi Dm28
Experiment: Trypanocidal activity (MTT) on trypomastigotes
Type: cell-based, Trypanosoma cruzi
Settings: SI=IC50 Vero cells/IC50 T. cruzi
Procedure: As a preliminary step, a study of nitroisoxazole derivatives on the epimastigote form of T. cruzi was performed. Despite the epimastigote form not being a clinical form present in mammals, its easy handling has allowed screening for the trypanocidal activity of various compounds. It is worth noting that, during the intracellular life cycle of the parasite, a form similar to the epimastigote, which is biochemically and morphologically identical to the form present in the vector, has been described. […] This is consistent with studies by Fonseca-Berzal et al. […] Additionally, compounds with higher activity have aromatic rings as substituents for nitroisoxazoles, confirming what was described Do […] [40]. […] It has also been determined that the presence of an isoxazole is essential for activity, as its aromatic structure contains a weak nitrogen-oxygen bond that, under different reaction conditions, can undergo ring cleavage, increasing activity. […] The effects of the compounds on trypomastigote and Vero cell viability were evaluated by tetrazolium salt reduction assay (MTT). […] The plates were kept overnight at 37 °C (28 °C for epimastigotes), and the optical density (OD) was determined using a 96-well microplate reader (Vantaa, Finland) at 570 nm. […]

Row | SMILES | SI T (trypomastigote)
1 | COc1cc(/C=C/c2onc(C)c2[N+](=O)[O-])ccc1O [Compound 9, (E)-2-Methoxy-4-(2-(3-methyl-4-nitroisoxazol-5-yl)vinyl)phenol] | 0.6
2 | CCN(CC)c1ccc2cc(/C=C/c3onc(C)c3[N+](=O)[O-])c(=O)oc2c1 [Compound 11, (E)-7-(Diethylamino)-3-(2-(3-methyl-4-nitroisoxazol-5-yl)vinyl)-2H-chromen-2-one] | 0.3

Reference: PMC11207111, “Assessment of the Activity of Nitroisoxazole Derivatives against Trypanosoma cruzi” (Molecules, 2024)
